Tests used:
[1] = target: T1, DENV1 EDIII, polyhistidine-AviTag, produced in HEK-293-6E cells (DENV1); assay: cross-reactivity ELISA
T1 construct: also called EDIII of DENV1
T1 chain: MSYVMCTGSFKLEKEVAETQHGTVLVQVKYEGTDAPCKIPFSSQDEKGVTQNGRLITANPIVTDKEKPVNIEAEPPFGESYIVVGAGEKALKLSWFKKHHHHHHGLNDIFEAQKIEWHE

[2] = target: T2, WNV EDIII, polyhistidine-AviTag (WNV); assay: cross-reactivity ELISA
T2 chain: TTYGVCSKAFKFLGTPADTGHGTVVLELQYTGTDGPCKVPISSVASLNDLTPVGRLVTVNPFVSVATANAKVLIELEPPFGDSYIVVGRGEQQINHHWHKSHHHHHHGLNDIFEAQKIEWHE

B1: Z062 (BRA112_70) (antibody, V domains shown)
VH: EVQLVESGGGVVQPGRSLRLSCAASGFSFSSHAMYWVRQAPGKGLEWVAIVSYDGSTKNYADSVKGRFTISRDNSKNTIYLHLNSLRAEDTAVYFCAREVDGIYGYLHYWGQGTLVTVSS
VL: EIVLTQSPATLSLSPGERATLSCRARQNVRNFLAWYQQKPGQAPRLLIYDASNRATDIPARFSGSGSGTDFTLTISSLEPEDFAVYYCQQRSYSITFGQGTRLEIK
[1]
  binding result: no binding (tested: 10 µg/ml)
[2]
  binding result: no binding (tested: 10 µg/ml)

B2: Z051 (BRA138_59) (antibody, V domains shown)
VH: QVQLQESGPGLVKPSQTLSLTCTVSGVSISSGGYYYSWFRQLPGKGLEWIGHIYYTGNTHYNPSLRSRLTISVDTSKNQFSLKLSSVTAADTARYYCARAWCEYAAYCWFDPWGRGTLVTVSS
VL: EIVLTQSPGTLSLSPGERATLSCRASQSVTSSYLAWYQHKPGQAPRLLIYGASSRAPGIPDRFSGSGSGTDFTLTISRLEPEDFAVYWCQQYGRSPFTFGQGTKLEIK
[1]
  binding result: no binding (tested: 10 µg/ml)
[2]
  binding result: no binding (tested: 10 µg/ml)

— patent US20200147199A1 (ROCKEFELLER UNIVERSITY, published 2020)
